Assay results reported in patent publication EP4831293A1, “BIOSYNTHETIC GENE CLUSTER FOR POLYENE MACROLIDE NATURAL PRODUCT MANDIMYCIN, AND NATURAL PRODUCT AND USE THEREOF” (dated 2026).

Tests used:
[1] = test system: Candida albicans BNCC 186382; test: Mouse model of vaginal infection; conditions: 10 mg/kg, subcutaneous injection, once daily, 5 days
Procedure: Female BALB/c mice, weighing 19-21 g, were acclimated for three days prior to the experiment. The mice were randomly housed, with four mice per cage, and were acclimated for three days prior to the experiment. On Day 1, the mice received subcutaneous injections of estradiol benzoate at a dose of 10 mg/kg once daily for five consecutive days to induce estrus. On Day 6, 50 µL of a suspension of Candida albicans BNCC 186382 (1 × 10^10 CFU/mL) was inoculated intravaginally into each mouse using a pipette. Following vaginal inoculation, the mice were maintained in an inverted position for 5 min. After three consecutive days of infection, the mice were maintained under normal feeding conditions for one day and subsequently received subcutaneous injections of mandimycin (10 mg/kg), amphotericin B (10 mg/kg), rezafungin (10 mg/kg), or isavuconazole (10 mg/kg) once daily for five consecutive days. The mice infected with Candida albicans but not treated with the compounds served as a control group and were injected with PBS containing 10% DMSO and 10% Tween 80. On the day following the final administration, the vaginae of the mice were repeatedly lavaged with sterile PBS (20 µL), and the vaginal lavage fluids were aspirated using pipettes. The samples were cultured on MRS agar plates for enumeration of Candida albicans colonies. Finally, all animals were anesthetized and euthanized using diethyl ether, and vaginal tissues were collected.

[2] = test system: Candida albicans BNCC 186382; test: Effect of added fungal cell components on the MIC (broth dilution)
Procedure: The effects of the addition of eukaryotic membrane phospholipid components (including phosphatidylinositol, phosphatidylserine, phosphatidylethanolamine, phosphatidylglycerol, lecithin, sphingomyelin, and cardiolipin), ergosterol and cell wall components β-1,3-glucan and mannan, on the antifungal activity of mandimycin were evaluated using Candida albicans BNCC 186382 and the broth dilution method. Various membrane components used in the experiments were dissolved in 10% DMSO to prepare the concentrations required for the experiment, followed by addition to the culture medium used for MIC determination of mandimycin. The effects of fungal cell membrane components on the MIC of mandimycin were then observed. […] Specifically, as the concentration of lecithin increased, the fold-change in the MIC of mandimycin against Candida albicans increased from 1-fold to 128-fold. As the concentrations of cardiolipin, phosphatidylinositol, phosphatidylserine, phosphatidylethanolamine, and sphingomyelin increased, the fold-change in the MIC of mandimycin increased from 1-fold to 64-fold. As the concentration of phosphatidylglycerol increased, the fold-change in the MIC of mandimycin increased from 1-fold to 32-fold.

[3] = test system: Candida albicans BNCC 186382; test: Mouse model of invasive candidiasis (survival); conditions: 10 mg/kg once daily for four days, monitored 20 days
Procedure: Specific pathogen-free female ICR mice (Hangzhou Medical College, China), aged 6 weeks and weighing 23-27 g, were used. The mice were randomly housed, with six mice per cage, and were acclimated for three days prior to the experiment. To induce immunosuppression, the mice received intraperitoneal injections of cyclophosphamide (200 mg/kg) and subcutaneous injections of cortisone acetate (500 mg/kg) on Day -2 and Day +3, respectively. To prevent cross-infection, the mice received enrofloxacin in drinking water at a concentration of 50 µg/mL from Day 1 to Day 3, followed by subcutaneous injection of ceftazidime (200 µg/kg) from Day 0 to Day 9. Invasive candidiasis was induced by intravenous injection of 1 × 10^6 CFU of Candida albicans BNCC 186382. Treatment was initiated 16 h after infection, including subcutaneous injection of mandimycin (formulated in 10% DMSO and 10% Tween 80) at doses of 1 mg/kg, 5 mg/kg, 10 mg/kg, and 20 mg/kg once daily for four consecutive days, together with amphotericin B at a dose of 10 mg/kg. The mice were monitored for a total of 20 days. Survival curves were plotted using GraphPad Prism 9. When mandimycin was administered at a dose of 10 mg/kg, a survival rate of mice reached 100%.

SMILES: COC1CC(OC2C(O)CC(OC3C(C)C=CCCC=CC=CC=CC=CC=CC(OC4OC(C)C(O)C(N)C4O)CC4OC(O)(CC(O)C(O)CCC(O)CC(=O)CC(O)CC(=O)OC(C)C3C)CC(O)C4C(=O)O)OC2C)OC(C)C1O (stereo not drawn)
- inflammation [1]: markedly alleviated
- vaginal fungal burden reduced by [1]: 2.51 log10 CFU
- vaginal mucosa [1]: almost completely restored
- inhibition of antifungal activity by added ergosterol ([2]; ergosterol added to MIC medium): did not inhibit
- inhibition of antifungal activity by added β-1,3-glucan ([2]; β-1,3-glucan added to MIC medium): did not inhibit
- survival rate of mice [3]: 100%

The structures given here were assigned with low confidence; some may be wrong.
